A mixed list of measured activities; the numbers were collected in NIAID ChemDB.

All rows: tests in culture; organism: Hepatitis B virus; cell line: HepG2.2.15; endpoint: EC50

An empty or dashed field is not shown.

compound	method	value
COC(=O)C1=C(CN2CC(F)(F)[C@H]3[C@@H]2CCN3CC[C@](C)(O)C(=O)O)NC(c2nccs2)=N[C@H]1c1ccc(F)c(F)c1F	PCR	0.085 µM
C[C@@H]1Cc2nn3c(c2CN1C(=O)Nc1ccc(F)c(C#N)c1)C(=O)N(C)C[C@H](c1ccno1)C3	-	22 µM
O=C(c1ccc(Cl)c(Cl)c1)N1CCS(=O)(=O)[C@H](c2cccs2)C1	PCR	0.1–0.5 µM
CCOC(=O)C1=C(CN2CC(F)(F)[C@@H]3[C@H]2CON3C[C@@H](O)[C@H](CC)C(=O)O)NC(c2nccs2)=N[C@H]1c1cccc(F)c1C	PCR	0.086 µM
C[C@@H]1Cc2nn3c(c2CN1C(=O)Nc1ccc(F)c(C#N)c1)C(=O)N(C)C[C@@H](c1ccn[nH]1)C3	fluorescence	260 µM
COc1cccc(NC(=O)NCC(=O)Nc2ccc(Cl)nc2Cl)c1	PCR	>100 µM
Cc1cc(NC(=O)c2ccc(F)c(Br)c2)ccc1F	-	0.6 µM
CSc1ncc(C(=O)N(C)C)c(Nc2ccc3[nH]ncc3c2)n1	-	~0.1 µg/mL
COC(=O)C1=C(CN2CC(F)(F)[C@@H]3[C@H]2CON3CC[C@@](C)(O)C(=O)O)NC(c2nccs2)=N[C@H]1c1ccc(F)c(F)c1Cl	PCR	0.178 µM
COc1ccc(CN2CCn3c(c4n(c3=O)CCN(C(=O)c3ccc(Br)cc3)C4)C2=O)cc1	PCR	>5 µM
Nc1ncc(I)c2c1ncn2[C@@H]1C[C@H](O)[C@@H](O)[C@H]1O	-	0.808 µM
CCOC(=O)C1=C(CN2CC(F)(F)[C@@H]3[C@H]2CON3CC(O)(CC)C(=O)O)NC(c2nccs2)=N[C@H]1c1cccc(F)c1C	PCR	0.773 µM
Nc1nc(=O)n([C@@H]2O[C@H](CO)[C@@H](CO)[C@@H]2F)cc1F	-	0.13 µM
CSc1ncc(C(N)=O)c(Nc2ccc3cn[nH]c3c2)n1	-	<1 µg/mL
CCOCC1=C(C(=O)OCC)C(c2ccc(F)cc2Br)N=C(c2ncccc2F)N1	-	0.1 µM
CC1O[C@@H]2C[C@H]3[C@H]4C5=C(C(=O)OCC5=C[C@]13C1=C2C(=O)OCC1)[C@@H](O)O[C@@H]4c1cccc2c1CCOC2=O	PCR	2.12 µM
C[C@]1(CO)O[C@@H](n2cc(F)c(N)nc2=O)[C@H](O)[C@@H]1O	-	>10 µM
O=C(CNC(=O)Nc1cccc(F)c1)Nc1ccc(Cl)nc1Cl	PCR	19 µM
O=C1NCCCn2c1c1n(c2=O)CCN(C(=O)c2ccc(Br)c(F)c2)C1	PCR	>5 µM
COC(=O)C1=C(c2cccc(OC)c2)NC(c2ccccn2)=NC1c1ccccc1Cl	-	>100 µM
C=C(C)[C@H](O)CC[C@]1(C)CC[C@]2(C)[C@H]3CC[C@@]4(C)[C@@H](CCC(=O)[C@@H]4C)[C@]3(C)CC[C@@]2(C)C1	-	2.7 µM
O=C1NCCCn2c1c1n(c2=O)CCN(C(=O)Nc2ccc(F)c(Cl)c2)C1	PCR	>5 µM
CCOCC1=C(C(=O)OC)C(c2ccc(F)cc2Cl)N=C(c2ncc(F)cc2F)N1	-	0.2 µM
CC(=O)c1c(O)c(C(C)C)cc2c(c1=O)C[C@@]1(O)CCCC(C)(C)C1CC2	ELISA / antigen	160 µM
Cc1cn([C@H]2OC(C)(CO)[C@H](O)[C@@H]2O)c(=O)[nH]c1=O	-	>10 µM
C[C@@H]1Cc2nn3c(c2CN1C(=O)Nc1ccc(F)c(C#N)c1)C(=O)N(C)C[C@@H](c1ccno1)C3	fluorescence	150 µM
CSc1ncc(C(=O)NN2CCOCC2)c(Nc2ccc3[nH]ncc3c2)n1	-	0.1 µg/mL
C[C@H](Cn1cnc2c(N)ncnc21)OCP(=O)(O)O	PCR	0.9 µg/mL
Nc1nc(=O)n([C@@H]2C=C[C@H](CO)O2)cc1F	-	20 µM
O=C(c1cccc(Cl)c1F)N1CCS(=O)(=O)[C@H](c2cccs2)C1	PCR	>5 µM
C=C(C)[C@H](CC)CC[C@@H](C)C1CCC2C3CC=C4C[C@@H](O)CC[C@]4(C)C3CC[C@@]21C	ELISA / antigen	47.7 µM
CCOC(=O)C1=C(C)NC(c2ccccn2)=NC1c1ccccc1Cl	-	2–3 µM
N#CCCC1C(=O)c2ccc(-c3ccc(F)c(F)c3)cc2OC12CCCC2	-	0.002 µM
C=C(C)[C@H](CC)CC[C@@H](C)[C@H]1CCC2C3C(=O)C=C4C[C@@H](O)CC[C@]4(C)C3CC[C@@]21C	ELISA / antigen	49.6 µM
N#Cc1cc(NC(=O)N2CCc3nn4c(c3C2)C(F)(F)CCC(F)(CO)C4)ccc1F	fluorescence	0.005 µM
Cc1cc(C(=O)N2CCS(=O)(=O)[C@H](c3cccs3)C2)ccc1Cl	PCR	0.1–0.5 µM
C[C@H]1Cn2c(c(C(=O)NCc3ccccc3-c3ncccn3)n(-c3ccc(-n4cccn4)cc3)c2=O)CN1C(=O)c1ccc(Br)c(C#N)c1	PCR	0.5–5 µM
COC(=O)C1=C(C)NC(c2ncc(F)cc2F)=N[C@H]1c1ccc(F)cc1Cl	-	0.053 µM
C[C@H]1OC(=O)[C@@H](O)CC2[C@]3(C)CC[C@@]4(CC(=O)O)C5CC(C)(C)CC[C@]5(C)CC[C@]4(C)C3CC[C@@]21C	ELISA / antigen	26.2 µM
CN(CC(=O)Nc1ccc(Cl)cc1Cl)C(=O)c1ccccn1	PCR	39 µM
COc1cc2c(c(OC)c1OC)-c1c(cc3c(c1OC)OCO3)C[C@H](C)[C@H](C)[C@@H]2OC	PCR	5.49 µg/mL
C[C@@H]1Cc2nn3c(c2CN1C(=O)Nc1ccc(F)c(C(F)(F)F)c1)C(=O)N(C)C[C@@H](c1ccn[nH]1)C3	fluorescence	280 µM
C=C(C)[C@@H]1CC[C@]2(C(=O)OC)CC[C@]3(COC(=O)c4ccccc4)C(CCC4[C@@]5(C)CC[C@H](OC(C)=O)CC5C(C)(C)C[C@]43C)C12	ELISA	8.9 µM
CSc1ncc(C(=O)NCc2cccnc2)c(Nc2ccc3[nH]ncc3c2)n1	-	<0.1 µg/mL
CC(=O)O[C@H]1CC[C@]2(C)[C@H]3C(=O)C=C4[C@@H]5C[C@@](C)(C(=O)O)CC[C@]5(C)CC[C@@]4(C)[C@]3(C)CC[C@H]2C1(C)C	-	20.86 µM
Cc1cc(C(=O)N2CCS(=O)(=O)[C@@H](c3cccs3)C2)ccc1Cl	PCR	0.5–5 µM
CC1=CC2c3c(cc4oc(-c5cc(O)cc(O)c5)cc4c3C)O[C@@]3(c4ccc(O)cc4O)Oc4cc(O)ccc4[C@H](C1)C23	PCR	9.1 µM
CC1O[C@@H]2C[C@H]3[C@H]4C5=C(C(=O)OCC5=C[C@]13C1=C2C(=O)OCC1)[C@@H](O)[C@]12C(=O)OCCC1=C(C=O)[C@@H](C)O[C@H]42	ELISA / antigen	440 µM
COC(=O)C1=C(C)NC(c2ccccn2)=N[C@@H]1c1ccccc1Cl	-	>100 µM
ClCCc1c(Cl)nc2ccc(Cl)cc2c1-c1ccccc1Cl	ELISA / antigen	1400 µM
O=C(c1ccc(Cl)cc1Cl)N1CCS(=O)(=O)[C@@H](c2cccs2)C1	PCR	0.5–5 µM
OC[C@H]1OC2OC[C@H](c3ccc(O)c(O)c3)OC2[C@@H](O[C@@H]2OC[C@](O)(CO)[C@H]2O)[C@@H]1O	ELISA / antigen	500 µM
C/C=C(/C)C(=O)Oc1c2c(cc3c1-c1c(cc(OC)c(OC)c1OC)C[C@](C)(O)[C@@H](C)C3)OCO2	PCR	32 µg/mL
Nc1ccn([C@@H]2CS[C@H](CO)O2)c(=O)n1	ELISA / antigen	1530 µM
CCOCC1=C(C(=O)OCC)C(c2ccc(F)cc2Cl)N=C(c2ncc(F)cc2F)N1	-	0.15 µM
CSc1ncc(C(N)=O)c(Nc2ccc3[nH]ncc3c2)n1	-	~0.1 µg/mL
CC1=C(C(=O)OC(C)C)C(c2ccccc2Cl)N=C(c2ccccn2)N1	-	>20 µM
[N-]=[N+]=N[C@]1(CO)O[C@@H](n2ccc(N(CCO)CCO)nc2=O)[C@@H](F)[C@@H]1O	ELISA / antigen	0.25 µM
C[C@H](NC(=O)c1c2n(c(=O)n1-c1ccc(OC3CC3)cc1)CCN(C(=O)c1ccc(Br)c(Cl)c1)C2)c1ccccc1-n1cncn1	PCR	>5 µM
N#Cc1nc(NC(=O)N2CCc3nn4c(c3C2)C(F)(F)CC[C@H](O)C4)ccc1F	fluorescence	0.022 µM
C=C(C)[C@H](CC)CC[C@@H](C)[C@H]1CCC2C3C(CC[C@@]21C)[C@@]1(C)CC[C@H](O)CC1=C[C@H]3O	ELISA / antigen	92.5 µM
CSc1ncc(C(=O)NCCN(C)C)c(Nc2ccc3cn[nH]c3c2)n1	-	<0.1 µg/mL
COC(=O)C1=C(C)NC(c2ccccn2)=NC1c1ccccc1	-	4 µM
C[C@@]12C(=O)NC(=O)[C@]1(C)C1CCC2O1	PCR	0.002 µM
COCCOC(=O)C1=C(C)NC(c2ccccn2)=NC1c1ccccc1Cl	-	>50 µM
CNC(=O)c1cnc(SC)nc1Nc1ccc2[nH]ncc2c1	-	<1 µg/mL

Repeating the first 5 entries:

{"compound": "COC(=O)C1=C(CN2CC(F)(F)[C@H]3[C@@H]2CCN3CC[C@](C)(O)C(=O)O)NC(c2nccs2)=N[C@H]1c1ccc(F)c(F)c1F", "method": "PCR", "value": "0.085 µM"}
{"compound": "C[C@@H]1Cc2nn3c(c2CN1C(=O)Nc1ccc(F)c(C#N)c1)C(=O)N(C)C[C@H](c1ccno1)C3", "value": "22 µM"}
{"compound": "O=C(c1ccc(Cl)c(Cl)c1)N1CCS(=O)(=O)[C@H](c2cccs2)C1", "method": "PCR", "value": "0.1–0.5 µM"}
{"compound": "CCOC(=O)C1=C(CN2CC(F)(F)[C@@H]3[C@H]2CON3C[C@@H](O)[C@H](CC)C(=O)O)NC(c2nccs2)=N[C@H]1c1cccc(F)c1C", "method": "PCR", "value": "0.086 µM"}
{"compound": "C[C@@H]1Cc2nn3c(c2CN1C(=O)Nc1ccc(F)c(C#N)c1)C(=O)N(C)C[C@@H](c1ccn[nH]1)C3", "method": "fluorescence", "value": "260 µM"}

Rows are shuffled and stem from different studies. ECn is the concentration giving n% inhibition of infection, replication or growth. Two numbers with a dash give a range or band.